Experimental data as given in US5132414A, “Dideoxynucleoside-5'-phosphonoformic acid compounds” (Dana-Farber Cancer Institute, Inc., priority 1990, dated 1992).

System: HIV-1
Experiment: Inhibition of HIV-1 replication in Jurkat cells (RT activity), drugs added 4 h before virus (prophylaxis model)
Type: cell-based
Method: The final DMSO concentration in the medium was <0.1%. These solutions in cell growth medium were used in all of the biological tests described below.
In a second evaluation, the compound salt of Example 1, AZT, and PFA were compared as inhibitors of HIV-1 replication in Jurkat cells when added to the cultures 4 h before the virus (i.e., in a prophylaxis model). The drugs were present through the length of the experiment (4 days).

Structure (SMILES)	therapeutic index (TI), IC50 (antiviral activity)/IC50 (cell growth inhibition) ratio
Cc1cn([C@H]2C[C@H](N=[N+]=[N-])[C@@H](CO)O2)c(=O)[nH]c1=O [AZT, 3'-azidothymidine, reference compound]	approximately four-log
CCOC(=O)P(=O)(O)OC[C@H]1O[C@@H](n2cc(C)c(=O)[nH]c2=O)C[C@@H]1N=[N+]=[N-] [Example 1, 3'-Azido-3'-deoxy-5'-[P-(ethoxycarbonyl)-P-Hydroxyphosphinyl]thymidine]	substantially more favorable
